# Fitness of HIV-1 1203 Vif variants in SupT1-APOBEC3G cells

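Pooled viruses with one designed change each in Vif went through two 72 h rounds in SupT1 cells expressing APOBEC3G. Each of three replicates was sequenced after round two and set against the merged round-one pool. Changes do not touch integrase, since the pol overlap was removed.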

Vif of 1203 (a subtype B primary isolate), residues 12-115; positions count from the first residue of the whole protein:
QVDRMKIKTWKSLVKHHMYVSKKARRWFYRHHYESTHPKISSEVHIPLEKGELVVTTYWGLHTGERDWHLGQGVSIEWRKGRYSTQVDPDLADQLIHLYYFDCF

The score is log2 enrichment against the wild-type codon: higher is better tolerated, lower is depleted. A change reads original residue, position, new residue. This list holds changes to asparagine only. The median of three replicates is given. Input reads are the counts in the merged round-one pool, before selection. Not every substitution is listed.

For D14N (input reads 559) the result was 0.53.
For R15N (input reads 21) the result was 3.44.
For K17N (input reads 35) the result was -0.02.
For K19N (input reads 355) the result was -0.79.
For T20N (input reads 1171) the result was -2.91.
For K22N (input reads 63) the result was -1.21.
For S23N (input reads 51) the result was -0.01.
For K26N (input reads 528) the result was -0.77.
For M29N (input reads 896) the result was -0.05.
For Y30N (input reads 164) the result was -2.33.
For V31N (input reads 269) the result was -2.21.
For K33N (input reads 24) the result was 0.18.
For K34N (input reads 1196) the result was -0.88.
For W38N (input reads 245) the result was -0.21.
For F39N (input reads 29) the result was 0.19.
For Y40N (input reads 700) the result was -2.14.
For H42N (input reads 442) the result was 1.41.
For H43N (input reads 113) the result was -0.71.
For Y44N (input reads 776) the result was 0.56.
For S46N (input reads 29) the result was -0.96.
For I51N (input reads 111) the result was -2.89.
For S52N (input reads 567) the result was -1.67.
For E54N (input reads 356) the result was -1.07.
For H56N (input reads 22) the result was 1.32.
For E60N (input reads 590) the result was -0.34.
For V66N (input reads 248) the result was -1.47.
For T67N (input reads 36) the result was 2.61.
For Y69N (input reads 320) the result was -2.52.
For T74N (input reads 124) the result was -2.72.
For D78N (input reads 22) the result was 2.32.
For W79N (input reads 275) the result was -2.43.
For L81N (input reads 19) the result was 3.23.
For G82N (input reads 161) the result was -2.46.
For S86N (input reads 572) the result was -3.00.
For K91N (input reads 4086) the result was -0.93.
For S95N (input reads 349) the result was -1.92.
For Q97N (input reads 227) the result was -2.70.
For D99N (input reads 283) the result was -2.52.
For D101N (input reads 151) the result was 1.25.
For A103N (input reads 354) the result was -2.27.
For Q105N (input reads 46) the result was -1.65.
For I107N (input reads 57) the result was -4.28.
For Y111N (input reads 210) the result was -1.35.
For F112N (input reads 197) the result was -2.82.
For D113N (input reads 20) the result was 2.07.

The first 5 entries again:

* D14N (input reads 559) -> 0.53
* R15N (input reads 21) -> 3.44
* K17N (input reads 35) -> -0.02
* K19N (input reads 355) -> -0.79
* T20N (input reads 1171) -> -2.91

Positive scores are uncertain; some enriched variants did not exclude APOBEC3G in a separate test. Replicates agree only moderately (rank correlation about 0.4-0.65); scores from under about 50 input reads tend to be too high.

Values reported by Langley et al. 2025, preprint (doi:10.1101/2025.10.20.683452).